Patent US4436750A, “12'-Hydroxyverrucarin J and iso-satratoxin H” (dated 1984)

How the values were obtained:
KB cells = assay: Zones of inhibition of KB cells in agar; details: 6.5 mm paper disks
L1210 cells = assay: Inhibition of growth of L1210 cells in vitro; details: 0.067 μg/ml
[1] = tested on: human colon adenocarcinoma; assay: Zones of inhibition of human colon adenocarcinoma (HCA) in agar; details: 6.5 mm paper disks
Kloeckera brevis = assay: Antimicrobial activity, diameter of inhibition zone, Kloeckera brevis; details: 12.7 mm disks
Kloeckera africana = assay: Antimicrobial activity, diameter of inhibition zone, Kloeckera africana; details: 12.7 mm disks
Rhodotorio glutinis = assay: Antimicrobial activity, diameter of inhibition zone, Rhodotorio glutinis; details: 12.7 mm disks
Endomycopsis fibuliger = assay: Antimicrobial activity, diameter of inhibition zone, Endomycopsis fibuliger; details: 12.7 mm disks
Saccharomyces fragilis = assay: Antimicrobial activity, diameter of inhibition zone, Saccharomyces fragilis; details: 12.7 mm disks
Saccharomyces italicus = assay: Antimicrobial activity, diameter of inhibition zone, Saccharomyces italicus; details: 12.7 mm disks
Pichia membranaefaciens = assay: Antimicrobial activity, diameter of inhibition zone, Pichia membranaefaciens; details: 12.7 mm disks
Saccharomyces cerevisiae = assay: Antimicrobial activity, diameter of inhibition zone, Saccharomyces cerevisiae; details: 12.7 mm disks
[2] = tested on: Saccharomycoides ludwigii; assay: Antimicrobial activity, diameter of inhibition zone, Saccharomycoides ludwigii; details: 12.7 mm disks
P388 Lymphatic Leukemia = assay: Antitumor activity against P388 Lymphatic Leukemia in Mice; details: QD × 5, values ≥125 considered active

Substance | Inhibitory Zone (KB cells; 10 μg/ml) [mm] | Inhibitory Zone (KB cells; 33 μg/ml) [mm] | Inhibitory Zone (KB cells; 100 μg/ml) [mm] | inhibition of the growth of L1210 cells in vitro (L1210 cells) | Inhibitory Zone ([1]; 10 μg/ml) [mm] | Inhibitory Zone ([1]; 33 μg/ml) [mm] | Inhibitory Zone ([1]; 100 μg/ml) [mm] | Diameter of Inhibition Zone (Kloeckera brevis; 0.1 mg/ml) | Diameter of Inhibition Zone (Kloeckera brevis; 0.5 mg/ml) | Diameter of Inhibition Zone (Kloeckera africana; 0.1 mg/ml) | Diameter of Inhibition Zone (Kloeckera africana; 0.5 mg/ml) | Diameter of Inhibition Zone (Rhodotorio glutinis; 0.1 mg/ml) | Diameter of Inhibition Zone (Rhodotorio glutinis; 0.5 mg/ml) | Diameter of Inhibition Zone (Endomycopsis fibuliger; 0.1 mg/ml) | Diameter of Inhibition Zone (Endomycopsis fibuliger; 0.5 mg/ml) | Diameter of Inhibition Zone (Saccharomyces fragilis; 0.1 mg/ml) | Diameter of Inhibition Zone (Saccharomyces fragilis; 0.5 mg/ml) | Diameter of Inhibition Zone (Saccharomyces italicus; 0.1 mg/ml) | Diameter of Inhibition Zone (Saccharomyces italicus; 0.5 mg/ml) | Diameter of Inhibition Zone (Pichia membranaefaciens; 0.1 mg/ml) | other results
12'-hydroxyverrucarin J | 30 | 32 | 36 | more than 95% | 13 | 20 | 25 | 0 | 14.0 | 0 | 22.5 | 20.5 | 29.0 | 17.0 | 25.0 | 27.0 | 30.0 | 16.5 | 19.5 | 0 | Diameter of Inhibition Zone (Pichia membranaefaciens; 0.5 mg/ml): 13.5; Diameter of Inhibition Zone (Saccharomyces cerevisiae; 0.1 mg/ml): 13.5; Diameter of Inhibition Zone (Saccharomyces cerevisiae; 0.5 mg/ml): 20.0; Diameter of Inhibition Zone ([2]; 0.1 mg/ml): 25.0; Diameter of Inhibition Zone ([2]; 0.5 mg/ml): 31.0
iso-satratoxin H | 40 | 44 | 44 | more than 95% | 12 | 17 | 21 | 0 | 18.0 | 0 | 20.0 | 20.0 | 25.0 | 26.0 | 29.0 | 25.0 | 29.0 | 0 | 17.0 | 0 | T/C percent MST (P388 Lymphatic Leukemia; test - 1, 0.5 mg/kg): 138%; T/C percent MST (P388 Lymphatic Leukemia; test - 1, 1.0 mg/kg): 152%; T/C percent MST (P388 Lymphatic Leukemia; test - 1, 2.0 mg/kg): 171%; T/C percent MST (P388 Lymphatic Leukemia; test - 2, 0.25 mg/kg): 125%; T/C percent MST (P388 Lymphatic Leukemia; test - 2, 0.5 mg/kg): 144%; T/C percent MST (P388 Lymphatic Leukemia; test - 2, 1.0 mg/kg): 177%; T/C percent MST (P388 Lymphatic Leukemia; test - 2, 2.0 mg/kg): 198%; Diameter of Inhibition Zone (Pichia membranaefaciens; 0.5 mg/ml): 0; Diameter of Inhibition Zone (Saccharomyces cerevisiae; 0.1 mg/ml): 0; Diameter of Inhibition Zone (Saccharomyces cerevisiae; 0.5 mg/ml): 17.0; Diameter of Inhibition Zone ([2]; 0.1 mg/ml): 23.0; Diameter of Inhibition Zone ([2]; 0.5 mg/ml): 29.0
